This test concerns the target NS3a (inactive), Avi-His6-NS3a S139A (hepatitis C virus). Description: pulldown: biotinylated NS3a inactive on streptavidin-agarose beads, 5 µM ANR-GST, anti-GST immunoblot; DMSO against 10 µM danoprevir. On the technique in general: In western blotting, separated proteins are transferred to a membrane and probed.

B1: ANR-GST (His6-ANR-GST) (other)
chain: MHHHHHHGSGTGSGELGRLVYLLDGPGYDPIHSDGTGSSPILGYWKIKGLVQPTRLLLEYLEEKYEEHLYERDEGDKWRNKKFELGLEFPNLPYYIDGDVKLTQSMAIIRYIADKHNMLGGCPKERAEISMLEGAVLDIRYGVSRIAYSKDFETLKVDFLSKLPEMLKMFEDRLCHKTYLNGDHVTHPDFMLYDALDVVLYMDPMCLDAFPKLVCFKKRIEAIPQIDKYLKSSKYIAWPLQGWQATFGGGDHPPKSDLVPR
notes: also called ANR-GST fusion
In the case of B1, the binding result was “binds”.

The record behind these values is patent US20220025003A1 (University of Washington, published 2022).
